Measurements reported in publication PMC7265302 (Nature Communications, 2020).

B1: Lpg2149 (aa 9–111) (domain or fragment)
chain: GTFFKDYQKKNVMRLLQDSLEKIINEWLKTDDESHTKLKSLQELSEMDINATSFAEHSPLPDFVTRLWLDPHKALDAMDKNISKNEIRKLIKETAREIELVFT
B2: Lpg2149, wild type (natural protein)
chain: MMSREKAAGTFFKDYQKKNVMRLLQDSLEKIINEWLKTDDESHTKLKSLQELSEMDINATSFAEHSPLPDFVTRLWLDPHKALDAMDKNISKNEIRKLIKETAREIELVFTHQKAPDYS

Experiments:
[1] = molecular target: MavC (aa 1–385) (Legionella pneumophila, UniProt Q5ZTL4 1-385); assay: crystal structure; settings: both partners purified
[2] = molecular target: MvcA (C83A) (Legionella pneumophila, UniProt Q5ZTL3 1-426, C83A); settings: both partners purified

Binder | binding result [1] | binding result [2]
B1 | binds | –
B2 | – | binds
